Compound potency records, mixed from different reports. Data source: NIAID ChemDB in PubChem.

All rows: whole-cell or culture tests; species: HIV-1; cell line: PBMC; endpoint: inhibition

Neighbouring rows are from separate reports. Blank or dashed fields: not listed here. Inhibition is in % at the dose shown (toxicity tests: loss of growth or viability).

compound | strain | changes | method | setting | tested at | value
Nc1nc(Cl)c2ncn(CCCCCB(O)O)c2n1 | BaL | - | p24 | - | 0.5 µM | 55%
CCNc1cccnc1N1CCN(C(=O)c2cc3cc(OC)ccc3[nH]2)CC1 | Seropositive clinical isolate C | - | MTT | - | 1 µM | 63%
Cc1cn([C@H]2C=C[C@@H](CO)O2)c(=O)[nH]c1=O | LAV | - | RT activity | - | 0.1 µM | 71.8%
CCN(CC)CCCC(C)Nc1ccnc2cc(Cl)ccc12 | NL4-3 | - | p24 / ELISA / antigen | - | 10 µM | 60%
Nc1ccn([C@@H]2C=C[C@@H](CO)[C@H](CO)C2)c(=O)n1 | - | - | p24 / antigen | - | 10 nM | 65%
CCC(C)[C@H](NC(=O)[C@H](C(C)C)[C@@H](O)[C@H](O)[C@H](CC1CCCCC1)NC(=O)c1ccccc1SCCCCC[C@@H]1SC[C@@H]2NC(=O)NC21)C(=O)NCc1ccccn1 | D34 | - | p24 | - | 0.001 µM | 2%
[N-]=[N+]=N[C@@H]1[C@H](O)[C@@H](CO)O[C@H]1n1ccc(N)nc1=O | IIIB | - | p24 | - | 2 µM | 40%
O=C(NCc1ccc(F)cc1)c1nc(N2CCCCS2(=O)=O)c2cccnc2c1O | 1357 Primary R5 strain | - | p24 | - | 0.008 µM | 95%
O=Nc1c(-c2c(O)[nH]c3ccccc23)[nH]c2ccccc12 | RT-M41L L74V V106A T215Y RTMDR | - | p24 | - | 1 µM | 55.5%
COc1cc(C[C@H](C)[C@H](C)Cc2ccc(O)c(O)c2)ccc1O | JR-CSF | - | p24 | - | 0.2 µg/mL | 90%
O=C1N(Cc2ccc(CO)cc2)[C@H](Cc2ccccc2)[C@H](O)[C@@H](O)[C@@H](Cc2ccccc2)N1Cc1ccc(CO)cc1 | Clinical isolate V | - | p24 | - | 0.18 µM | 90%
O=C(Nc1cc(S(=O)(=O)O)cc2cc(S(=O)(=O)O)c(N=Nc3ccc(N=Nc4c(S(=O)(=O)O)cc5cc(S(=O)(=O)O)cc(NC(=O)c6cccc(Cl)c6Cl)c5c4O)cc3)c(O)c12)c1ccc(Cl)cc1Cl | SF162 | - | - | - | 0.79 µg/mL | 90%
CC(C)[C@H](NC(=O)c1ccc2ccccc2n1)C(=O)N[C@@H](Cc1ccccc1)[C@H](O)CN1CC[C@@H](OCc2ccncc2)C[C@H]1C(=O)NC(C)(C)C | Wg3522 | - | p24 | - | 0.05 µM | 90%
Cn1cnc2c(NCc3ccccc3)nc(NCCO)nc21 | UG/92/029 SI CLADE A | - | p24 | - | 10 µM | 20%
O=c1[nH]cnc2c1ncn2[C@H]1CC[C@@H](CO)O1 | IIIB | - | p24 | - | 7.5 µM | 88%
Cc1ncnc(C)c1C(=O)N1CCC(C)(N2CCN([C@@H](Cc3ccccc3)c3ccc(C(F)(F)F)cc3)[C@@H](C)C2)CC1 | JV1083 Clinical isolates | - | - | - | 0.00027 µM | 90%
c1cc(CN2CCCNCCNCCCNCC2)ccc1CN1CCCNCCNCCCNCC1 | DJ258 CLADE A R5 | - | p24 | - | 0.5 µM | 46%
NC(=O)NO | IIIB | - | p24 | - | 50 µM | 50%
NC(=O)NO | NL4-3 | - | p24 | - | 100 µM | 55%
C[C@H]1/C=C/[C@@]2(C)CC[C@@H](C(C)(C)O)[C@@H]2[C@@H](O)C[C@](C)(O)/C=C/C1 | 95BRRJ010 X4 | - | p24 | - | 25 µM | 91%
Cc1ccc(-c2ccc3c(c2)C=C(C(=O)Nc2ccc(C[N+](C)(C)C4CCOCC4)cc2)CCC3)cc1 | HHA | - | p24 | - | 0.0075 µM | 90%
CC(=O)N1CCC(C(=O)N(CCCN2CCC(Cc3ccc(C(N)=O)cc3)CC2)c2ccc(C)c(Cl)c2)CC1 | HTN R5 clinical isolate | - | p24 | - | 0.015 µM | 90%
O=C(CO)N[C@@H]([C@@H](O)[C@H](O)[C@H](O)CO)[C@@H](O)C(=O)C(=O)O | MN | - | p24 | - | 6.2 µg/mL | 99.9%
CC(C)=CCOc1cc(NC(=S)c2ccoc2C)ccc1Cl | 92US657 Clinical isolate | - | p24 | - | 0.01219 µg/mL | 90%
CCC[C@@]1(CCc2ccccc2)CC(O)=C([C@H](CC)c2cccc(NS(=O)(=O)c3ccc(C(F)(F)F)cn3)c2)C(=O)O1 | Isolate 301-6X ritonavir-resistant | - | p24 | - | 0.33 µM | 90%
Cc1c(N)nc([C@H](CC(N)=O)NC[C@H](N)C(N)=O)nc1C(=O)N[C@H](C(=O)N[C@H](C)[C@@H](O)[C@H](C)C(=O)N[C@H](C(=O)NCCc1nc(-c2nc(C(=O)NCCC[S+](C)C)cs2)cs1)[C@@H](C)O)C(O[C@@H]1O[C@@H](CO)[C@@H](O)[C@H](O)[C@@H]1O[C@H]1O[C@H](CO)[C@@H](O)[C@H](OC(N)=O)[C@@H]1O)c1cnc[nH]1 | BaL | - | p24 | - | 0.7 µM | 22%
Cc1cn([C@H]2C[C@H](N=[N+]=[N-])[C@@H](CO)O2)c(=O)[nH]c1=O | IIIB | - | RT activity | - | 0.01 µM | 60%
COc1ccc(Cc2nccc3cc(OC)c(OC)cc23)cc1OC | IIIB | - | RT activity | - | 10 µg/mL | 62.1%
O=C(O)c1cc(SSc2ccc([N+](=O)[O-])c(C(=O)O)c2)ccc1[N+](=O)[O-] | - | - | p24 | - | 2500 µM | 77%
CCC[C@@]1(CCc2ccccc2)CC(O)=C([C@H](CC)c2cccc(NS(=O)(=O)c3ccc(C(F)(F)F)cn3)c2)C(=O)O1 | Isolate UJ00007 | - | p24 | - | 0.15 µM | 90%
CCc1cn([C@H]2C[C@H](N=[N+]=[N-])[C@@H](CO)O2)c(=O)[nH]c1=O | LAV | - | RT activity | - | 0.1 µM | 99.8%
Cc1cn([C@H]2C[C@H](N=[N+]=[N-])[C@@H](CO)O2)c(=O)[nH]c1=O | Clinical isolate | - | p24 / RT activity | clinical isolate | 0.0284 µM | 90%
Oc1ccc(/C=C/c2cc(O)cc(O)c2)cc1 | EJC-X2 | - | p24 | clinical isolate | 10 µM | 35%
C=C(C)[C@@H]1CC[C@]2(C(=O)NCCCCCCCC(=O)N[C@@H](CC(C)C)[C@H](O)CC(=O)O)CC[C@]3(C)[C@H](CC[C@@H]4[C@@]5(C)CC[C@H](O)C(C)(C)[C@@H]5CC[C@]43C)[C@@H]12 | QZ4734 | - | RT activity | - | 2.65 µM | 90%
CCc1cc(NCc2nc3c(Cl)ccc(Cl)c3o2)c(=O)[nH]c1C | Clinical isolate (RT M41 D67N T215Y) | RT-M41L D67N T215Y | p24 | - | 0.2 µM | 90%
CCCCN1C(=O)C(=C/C=C/C=C2/Oc3ccccc3N2CCCS(=O)(=O)O)C(=O)N(CCCC)C1=S | IIIB | - | ELISA | 15 d | 200 µg/mL | 98.5%
Nc1ccn([C@@H]2C[Se][C@H](CO)O2)c(=O)n1 | BRU | - | RT activity | - | 0.95 µM | 90%
CN(C[C@@H](CCN1CCC2(CC1)CS(=O)c1ccccc12)c1cccc(Cl)c1)S(=O)(=O)c1ccccc1 | YU-2 (M-tropic) | - | p24 | - | 12.5 µM | 95%
COc1cc(O)c2c(=O)oc3cc(O)cc(C)c3c2c1 | NL4-3 | - | p24 / ELISA | 5 d | 35 µM | 95%
Nc1nc(NC2CC2)c2ncn([C@H]3C=C[C@@H](CO)O3)c2n1 | BRU PITT.(RT-L74V) | RT-L74V | cytopathic effect / MTT | - | 74 µM | 90%
CC[C@H](C)C(=O)O[C@H]1C[C@@H](C)C=C2C=C[C@H](C)[C@H](CC[C@@H]3C[C@@H](O)CC(=O)O3)[C@H]21 | 92US151 R5X4 clinical variant | - | p24 | - | 50 µM | 58.6%

The last 5 rows once more:

compound,strain,changes,method,setting,tested at,value
Nc1ccn([C@@H]2C[Se][C@H](CO)O2)c(=O)n1,BRU,-,RT activity,-,0.95 µM,90%
CN(C[C@@H](CCN1CCC2(CC1)CS(=O)c1ccccc12)c1cccc(Cl)c1)S(=O)(=O)c1ccccc1,YU-2 (M-tropic),-,p24,-,12.5 µM,95%
COc1cc(O)c2c(=O)oc3cc(O)cc(C)c3c2c1,NL4-3,-,p24 / ELISA,5 d,35 µM,95%
Nc1nc(NC2CC2)c2ncn([C@H]3C=C[C@@H](CO)O3)c2n1,BRU PITT.(RT-L74V),RT-L74V,cytopathic effect / MTT,-,74 µM,90%
CC[C@H](C)C(=O)O[C@H]1C[C@@H](C)C=C2C=C[C@H](C)[C@H](CC[C@@H]3C[C@@H](O)CC(=O)O3)[C@H]21,92US151 R5X4 clinical variant,-,p24,-,50 µM,58.6%